Measured values from several laboratories, pooled; numbers as filed in NIAID ChemDB.

Shared fields: host cell toxicity; cells: HepG2; endpoint: CC50

An empty or dashed field is not shown. CCn: concentration that lowers growth or viability of the cells by n%. Lines come from different laboratories, so protocols vary. a–b is a range or a potency band.

structure,method,value
COc1ccc2ccc(=O)n(CCN3C[C@@H]4CN(c5ccc6c(n5)NC(=O)CO6)C(=O)O[C@H]4C3)c2n1,luminescence,>100 µg/mL
CC(C)C[C@@H]1NC(=O)[C@H](Cc2c[nH]c3ccccc23)NC(=O)C(CCCN=C(N)N)NC(=O)[C@H](CC(N)=O)NC(=O)[C@H](C(C)C)NC(=O)[C@@H](CC(C)C)NC1=O,MTT,>30 µM
COc1cccc2ccc(N3CCC(c4nc(-c5ccc(N6CCCCC6)nc5)no4)CC3)nc12,MTS,>100 µM
COc1ccc(Cl)c2c1B(O)O[C@@H]2CN,radiometric,105 µM
Nc1ncnc2c1c(I)cn2[C@@H]1O[C@H](CO)[C@@H](O)C1(F)F,XTT,0.35 µM
CCCCCC[C@H](C)CC1=C(O)c2ccccc2C(=O)C1=O,MTT,>66.58 µM
COc1cccc2ccc(N3CCC(c4nc(-c5ccc(C(F)(F)F)cc5)no4)CC3)nc12,MTS,7.8–15.6 µM
C[C@@H]1CN(c2nc3sc(C(=O)NC4CC5(CC5)C4)cc3s2)CCN1C1COC1,fluorescence,>100 µM
CCNC(=O)c1cn(C/C(C)=C/CP(=O)(OCOC(=O)OC(C)C)OCOC(=O)OC(C)C)nn1,absorbance,>100 µM
C[C@H]1C[C@@H]1NC(=O)c1cc2sc(OC3COC3)nc2s1,fluorescence,>100 µM
Cc1cc(NC(=O)c2c(C)c(C(=O)C(=O)NC3(CO)CCN(C(=O)c4ccnn4C)CC3)n(C)c2C)ccc1F,MTT,>30 µM
COc1ccc2c(c1)C=C1Cn3c-2c(C2CCCCC2)c2ccc(cc23)C(=O)NS(=O)(=O)N(C)CCOCCN(C)C1=O,resazurin,>50 µM
C#Cc1cn([C@@H]2O[C@H](CO)[C@@H](O)[C@H]2F)c2ncnc(N)c12,XTT,0.52 µM
C[C@H]1C[C@@H]1NC(=O)c1cc2sc(OC[C@@H]3CCOC3)nc2s1,fluorescence,>100 µM
Nc1ncnc2c1c(-c1cccs1)cn2[C@@H]1O[C@H](CO)[C@@H](O)C1(F)F,XTT,>10 µM
CC(C)C[C@@H]1NC(=O)[C@H](Cc2c[nH]c3ccccc23)NC(=O)[C@@H](CCCCN)NC(=O)[C@H](C)NC(=O)[C@H](C(C)C)NC(=O)[C@@H](CC(C)C)NC1=O,MTT,>30 µM
Nc1ncnc2c1c(-c1ccccc1)cn2[C@H]1O[C@H](CO)[C@@H](O)C1(F)F,XTT,>10 µM
C/C(=C\CP(=O)(OCOC(=O)OC(C)C)OCOC(=O)OC(C)C)Cn1cc(C(C)(C)C)nn1,absorbance,>100 µM
O=C(Oc1ccc(Cl)cc1C(=O)Nc1cccc(C(F)(F)F)c1)c1cnccn1,,6.28 µM
C/C(=C\CP(=O)(OCOC(=O)OC(C)C)OCOC(=O)OC(C)C)Cn1cc(C=O)nn1,absorbance,>100 µM
Clc1cccc2ccc(N3CCC(c4nc(-c5cccnc5)no4)CC3)nc12,MTS,50–100 µM
Nc1ncnc2c1c(-c1ccco1)cn2[C@@H]1O[C@H](CO)[C@@H](O)[C@H]1F,XTT,>10 µM
O=C(Oc1ccc(Cl)cc1C(=O)Nc1ccc(C(F)(F)F)cc1)c1cnccn1,,1.66 µM
Nc1ncnc2c1c(-c1ccc3ccccc3c1)cn2[C@@H]1O[C@H](CO)[C@@H](O)C1(F)F,XTT,>10 µM
CCC1(NC(=O)C(=O)c2c(C)c(C(=O)Nc3ccc(F)c(C)c3)c(C)n2C)CCN(c2cccnn2)CC1,MTT,>30 µM
CCCCCc1ccc(-c2cn(C/C(C)=C/CP(=O)(OCOC(=O)OC(C)C)OCOC(=O)OC(C)C)nn2)cc1,absorbance,51.8 µM
O=C1COc2ccc(N3C[C@H]4CN(CCn5c(=O)ccc6ccc(Oc7cccnc7)nc65)C[C@@H]4OC3=O)nc2N1,luminescence,>100 µg/mL
CCOc1ccc(Cl)c2c1B(O)O[C@@H]2CN,radiometric,19.6 µM
CCCCc1ccc(-c2cn(C/C(C)=C/CP(=O)(OCOC(=O)OC(C)C)OCOC(=O)OC(C)C)nn2)cc1,absorbance,16.2 µM
Cc1cc(NC(=O)c2c(C)c(C(=O)C(=O)NC3(C)CC(O)C3)n(C)c2-c2nccs2)ccc1F,MTT,>30 µM
C[C@H]1C[C@@H]1NC(=O)c1cc2sc(C3CC3)nc2s1,fluorescence,>100 µM
Cc1cc(NC(=O)c2c(C)c(C(=O)C(=O)NC3(C)CC(O)C3)n(C)c2-c2cccnc2)ccc1F,MTT,>30 µM
CC(C)C[C@@H]1NC(=O)[C@@H](Cc2c[nH]c3ccccc23)NC(=O)CNC(=O)[C@@H](CC(N)=O)NC(=O)[C@H](C(C)C)NC(=O)[C@@H](CC(C)C)NC1=O,MTT,>30 µM
NC[C@H]1OB(O)c2c3c(cc(Cl)c21)OCCO3,radiometric,82.8 µM
Cc1cc(C#N)cc(C)c1Oc1cc(Nc2ccc(C#N)cc2)nc2ccccc12,MTT,≥50 µg/mL
Nc1ncnc2c1c(-c1cccs1)cn2[C@H]1O[C@H](CO)[C@@H](O)C1(F)F,XTT,>10 µM
CCc1c(C(=O)Nc2ccc(F)c(C)c2)c(C)n(C)c1C(=O)C(=O)NCC(C)(C)O,MTT,>30 µM
NC[C@H]1OB(O)c2c(OCCO)ccc(Cl)c21,radiometric,137 µM
Cc1c(C(=O)Nc2cc(Cl)nc(Cl)c2)c(C)n(C)c1C(=O)C(=O)NC1(C)CCC(O)CC1,MTT,>30 µM
CC(C)C[C@@H]1NC(=O)[C@H](Cc2c[nH]c3ccccc23)NC(=O)[C@@H](CCCN)NC(=O)[C@H](CC(N)=O)NC(=O)[C@H](C(C)C)NC(=O)[C@@H](CC(C)C)NC1=O,MTT,>30 µM

The first 5 rows once more:

structure | method | value
COc1ccc2ccc(=O)n(CCN3C[C@@H]4CN(c5ccc6c(n5)NC(=O)CO6)C(=O)O[C@H]4C3)c2n1 | luminescence | >100 µg/mL
CC(C)C[C@@H]1NC(=O)[C@H](Cc2c[nH]c3ccccc23)NC(=O)C(CCCN=C(N)N)NC(=O)[C@H](CC(N)=O)NC(=O)[C@H](C(C)C)NC(=O)[C@@H](CC(C)C)NC1=O | MTT | >30 µM
COc1cccc2ccc(N3CCC(c4nc(-c5ccc(N6CCCCC6)nc5)no4)CC3)nc12 | MTS | >100 µM
COc1ccc(Cl)c2c1B(O)O[C@@H]2CN | radiometric | 105 µM
Nc1ncnc2c1c(I)cn2[C@@H]1O[C@H](CO)[C@@H](O)C1(F)F | XTT | 0.35 µM